Results deposited as PubChem BioAssay AID504761 (Drosophila RNAi Screening Center, 2011).
Test: 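Insect host genes that dengue virus relies on to spread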 (primary screen). Cells: D.Mel-2 cells from Drosophila. Reagent: long dsRNA against Drosophila genes. Challenge: infection with dengue virus type 2; dose and infection time not stated. Read-out: 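Cells stained for dengue envelope protein and imaged; percent of infected cells per well on duplicate plates, ranked by infection, with stained nuclei counted for cell number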. Reading the numbers: infection score: higher = more virus-infected cells; cell count: higher = more cells in the well. Hit rule: 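Low infection ranks in the two replicates (chance level up to 0.065) followed by a retest with a 1.5-fold or larger significant decrease, p below 0.05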. Calls: active = confirmed: knock-down lowers infection; inactive = not picked or not confirmed.
The deposit covers about 22,000 reagents; this is a random part of those with a known target gene and a result. In the full data, 116 (0.52%) got an active call. 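Calls depend on retest data that are not deposited; infection was ranked per plate without normalising between plates; the unit of the infection score is not given.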 Raw values vary from plate to plate and are shown uncorrected. Further read-outs or replicates are left out here. Reagent sequences are not shown. The record does not give: the amount of reagent, the time to read-out.

no.	target	amplicon	infection score, replicate 1	infection score, replicate 2	cell count, replicate 1	Outcome
1	fiz	DRSC20188	1.58	2.74	6436	inactive
2	gprs	DRSC06761	9.85	20.6	3075	inactive
3	CG13373	DRSC27059	3.83	5.08	6665	inactive
4	ICA69	DRSC11621	2.02	4.58	6446	inactive
5	Reepl1	DRSC19418	1.89	15.7	6251	inactive
6	Reepl1	DRSC26698	1.52	2.34	5208	inactive
7	CG31199	DRSC15284	3.04	15.6	6679	inactive
8	CG8312	DRSC16406	6.46	9.52	5775	inactive
9	ox	DRSC07520	3.21	6.73	6477	inactive
10	Ino80	DRSC14760	3.91	9.14	6654	inactive
11	Ino80	DRSC15333	1.42	1.69	6281	inactive
12	Ino80	DRSC15501	3.66	3.77	6612	inactive
13	CG1910	DRSC15400	1.13	1.77	5853	inactive
14	CG3014	DRSC15458	9.25	9.74	6078	inactive
15	Sas10	DRSC18355	5.98	1.29	5431	inactive
16	CG2656	DRSC12584	7.88	6.64	6000	inactive
17	CG6959	DRSC16151	5.61	15.6	6771	inactive
18	CG13065	DRSC09948	3.76	1.3	5639	inactive
19	CG13065	DRSC28005	9.39	9.29	6370	inactive
20	CG14556	DRSC14899	1.55	6.63	7345	inactive
21	Sodq	DRSC15924	1.47		6736	inactive
22	Sodq	DRSC27755	32.4	22.5	4962	inactive
23	CG17985	DRSC06702	3.51	10.8	6844	inactive
24	CG10654	DRSC09767	3.73	13	6065	inactive
25	CG3397	DRSC15487	19.8	12	5418	inactive
26	plh	DRSC12294	4.52	14.8	5615	inactive
27	TwdlE	DRSC02392	4.72	2.67	6460	inactive
28	TwdlE	DRSC24943	2.16	1.77	6519	inactive
29	CG34345	DRSC02126	5.76	3.42	6437	inactive
30	CG15478	DRSC18057	9.15	13.9	6003	inactive
31	CG15478	DRSC25277	1.38	9.52	6499	inactive
32	l(3)80Fg	DRSC21645	1.03	3.42	6020	inactive
33	l(3)80Fg	DRSC22171	1.25	5.78	5937	inactive
34	CG34427	DRSC09978	4.15	1.43	6097	inactive
35	Ada2a	DRSC16206	1.78	7.01	6693	inactive
36	Ada2a	DRSC21598	39	25.5	6672	inactive
37	Mrm2	DRSC14310	9.71	12.9	3862	inactive
38	Mrm2	DRSC27849	4.42	26.8	951	inactive
39	CG13108	DRSC02206	4.68	2.64	5661	inactive
40	Ugt302C1	DRSC15353	8.13	12.1	6332	inactive
41	Ugt302C1	DRSC24517	3.9	5.04	6057	inactive
42	Atf-2	DRSC04130	15.6	26.8	6539	inactive
43	Atf-2	DRSC04413	0.86	5.32	6617	inactive
44	HmgD	DRSC04619	31.9	32	6576	inactive
45	HmgD	DRSC26171	5.65	2.28	6075	inactive
46	CG30371	DRSC06835	1.83	2.5	6188	inactive
47	CG12539	DRSC19470	7.85	8.53	6255	inactive
48	CG12539	DRSC29569	4.78	6.69	1089	inactive
49	Hibch	DRSC15705	18	5.54	6193	inactive
50	Hibch	DRSC27536	10.9	8.16	6124	inactive
51	Zw	DRSC20303	6.45	2.03	6074	inactive
52	Zw	DRSC27667	8.08	4.75	5782	inactive
53	CG7632	DRSC11842	6.85	2.63	6660	inactive
54	Fign	DRSC00592	3.35	1.49	6515	inactive
55	Osi13	DRSC12281	2.43	2.84	6659	inactive
56	CG6295	DRSC16012	1.82	1.89	5771	inactive
57	CG6295	DRSC24229	24.5	28.7	6161	inactive
58	PPP1R15	DRSC04422	10.8	8.04	5312	inactive
59	PPP1R15	DRSC26013	6.7	4.28	4703	inactive
60	Urod	DRSC07569	4.18	7.33	6835	inactive
61	Urod	DRSC30007	14.1	9.26	6178	inactive
62	CG46301	DRSC01916	2.03	6.62	6117	inactive
63	CG46301	DRSC25566	5.03	1.69	5926	inactive
64	CG30431	DRSC04902	13.8		6599	inactive
65	CG30431	DRSC04904	7.21	13	6784	inactive
66	CG6144	DRSC02934	6.99	8.44	6369	inactive
67	SmB	DRSC03437	28.1	35.3	3020	inactive
68	SmB	DRSC26259	12	5.41	4335	inactive
69	dob	DRSC19948	6.16	1.54	6505	inactive
70	CG30099	DRSC07039		2.99	538	inactive
71	CG30099	DRSC26526	2.02	1.71	6253	inactive
72	lig	DRSC07246	4.08	9.51	4458	inactive
73	lig	DRSC07247	6.52	17.3	5935	inactive
74	lig	DRSC23574	3.84	4.22	5177	inactive
